Experimental data as given in article PMC12643529 (ACS Infectious Diseases, 2025).

System: T. brucei parasites
Assay: Fluorescence microscopy, uptake and subcellular localization in parasites
Type: cell-based, Trypanosoma brucei
Conditions: 5 μM

`CN(C)c1ccc(/C=C/c2sc3ccccc3[n+]2C)cc1.[I-]` [compound 2b] was tested, and the subcellular localization (30 min incubation) was “fluorescence detected in both the cytoplasm and mitochondria” and the subcellular localization (longer periods of incubation (1 h, 2 h)) was “increased colocalization in the nucleus and kinetoplast”.
